Earlier results, collected in patent US20220096411A1, “COMBINING METABOLIC STIMULATION AND AMINO ACIDS TO SENSITIZE TOLERANT BACTERIA TO ANTIBIOTICS” (priority 2019, published 2022).
Some compounds share one wording; it may come from a single statement.

System: E. coli peptidoglycan
Conditions: previous work (14); cited from earlier work

CSCC[C@@H](N)C(=O)O [D-methionine]
incorporation of exogenous D-amino acid into peptidoglycan: incorporated into E. coli peptidoglycan

CCCC[C@@H](N)C(=O)O [D-norleucine]
incorporation of exogenous D-amino acid into peptidoglycan: incorporated into E. coli peptidoglycan

O=C(O)[C@H]1CCCN1 [D-proline]
incorporation of exogenous D-amino acid into peptidoglycan: is not

CC(C)[C@@H](N)C(=O)O [D-valine]
incorporation of exogenous D-amino acid into peptidoglycan: incorporated into E. coli peptidoglycan
